Compound potency records, mixed from different reports. Data source: NIAID ChemDB in PubChem.

Shared fields: growth or infection tests; species: Mycobacterium avium

A number after MIC or MFC names an inhibition level or a share of isolates. Blank or dashed fields: not listed here. Inhibition is in % at the dose shown (toxicity tests: loss of growth or viability). ECn is the concentration giving n% inhibition of infection, replication or growth. Neighbouring rows are from separate reports.

smiles,strain,read by,setting,read-out,tested at,result
O=C(NNC(=O)c1ccncc1)Nc1ccc(F)cc1Br,MY330/88,broth dilution,14 d,MIC100,-,>125 µM
CC[C@H]1OC(=O)[C@H](C)[C@@H](O[C@H]2C[C@@](C)(OC)[C@@H](O)[C@H](C)O2)[C@H](C)[C@@H](O[C@@H]2O[C@H](C)C[C@H](N(C)C)[C@H]2O)[C@](C)(OC)C[C@@H](C)C(=O)[C@H](C)[C@@H](O)[C@]1(C)O,3354,-,-,MBC,-,32 µg/mL
Cc1ccc(NC(=O)NNC(=O)c2ccncc2)cc1,MY330/88,broth dilution,14 d,MIC100,-,16 µM
Cc1cccc(C(=O)CC(N/N=C(\N)c2ccccn2)c2ccccn2)c1,17 strains,-,-,MIC50,-,160 µg/mL
CCCCCCCNC(=O)NNC(=O)c1ccncc1,MY330/88,broth dilution,14 d,MIC100,-,32 µM
NNC(=O)c1ccncc1,3350-4,-,-,MBC,-,80 µg/mL
C=Cc1cn([C@H]2C[C@H](O)[C@@H](CO)O2)c(=O)[nH]c1=O,ATCC 25291,-,-,inhibition,50 µg/mL,0%
CC(C)c1ccc(NC(=O)NNC(=O)c2ccncc2)cc1,MY330/88,broth dilution,21 d,MIC100,-,32 µM
CCc1nc2ccc(Cl)cn2c1C(=O)NCc1ccc(N2CCN(c3ccc(OCC4CC4)cc3)[C@@H](C)C2)cc1F.Cl,-,fluorescence,-,inhibition,0.024 µM,85%
O=c1[nH]c(=O)n([C@H]2C[C@H](O)[C@@H](CO)O2)cc1Cl,ATCC 25291,-,-,inhibition,50 µg/mL,0%
Cc1nc2ccc(Cl)cn2c1C(=O)NCc1ccc(N2CCN(c3ccc(OC(F)(F)F)cc3)[C@@H](C)C2)c(F)c1,-,fluorescence,-,inhibition,0.0027 µM,85%
Fc1cc(Br)ccc1Nc1nnc(-c2ccncc2)o1,MY330/88,broth dilution,21 d,MIC100,-,>125 µM
O=c1[nH]c(=O)n([C@H]2C[C@H](O)[C@@H](CO)O2)cc1/C=C/Br,ATCC 25291,-,-,EC50,-,>50 µg/mL
C[C@H]1CN(c2ccc(CNC(=O)c3c(Cl)nc4ccccn34)cc2F)CCN1c1ccc(OC(F)(F)F)cc1.Cl,-,fluorescence,-,inhibition,0.011 µM,85%
N/C(=N\NC(CC(=O)c1ccc(-c2ccccc2)cc1)c1cccnc1)c1ccccn1,17 strains,-,-,MIC50,-,80 µg/mL
Cc1cn2c(C(=O)NCc3cc(F)c(N4CCC(c5ccc(OC(F)(F)F)cc5)CC4)c(F)c3)c(C)nc2s1.Cl,-,fluorescence,-,inhibition,0.11 µM,85%
N/C(=N\NC(CC(=O)c1cccc(Cl)c1)c1ccccn1)c1ccccn1,17 strains,-,-,MIC50,-,32 µg/mL
Cc1ccn2c(C(=O)NCc3ccc(C4CCN(c5ccc(OC(F)(F)F)cc5)CC4)c(F)c3)c(C)nc2c1,-,fluorescence,-,inhibition,0.017 µM,85%
O=c1[nH]c(=O)n([C@H]2O[C@@H](CO)[C@H](O)[C@@H]2O)cc1I,ATCC 25291,-,-,EC50,-,>50 µg/mL
N/C(=N\NC(CC(=O)c1cccc(Br)c1)c1ccccn1)c1ccccn1,17 strains,-,-,MIC50,-,32 µg/mL
O=c1[nH]c(=O)n([C@H]2C[C@H](O)[C@@H](CO)O2)cc1/C=C/I,ATCC 25291,-,-,EC50,-,>50 µg/mL
CCc1nc2ccc(Cl)cn2c1C(=O)NCc1ccc(C2CCN(c3ccc(OCC4CC4)nc3)CC2)c(F)c1.Cl,-,fluorescence,-,inhibition,0.046 µM,85%
O=c1[nH]c(=O)n([C@H]2C[C@H](O)[C@@H](CO)O2)cc1/C=C/Cl,ATCC 25291,-,-,inhibition,50 µg/mL,0%
Cc1cccc(C(=O)CC(N/N=C(\N)c2ccccn2)c2ccncc2)c1,17 strains,-,-,MIC50,-,32 µg/mL

A second listing of 3 rows from above:

Cc1ccc(NC(=O)NNC(=O)c2ccncc2)cc1 ; strain: MY330/88 ; read by: broth dilution ; setting: 14 d ; read-out: MIC100 ; result: 16 µM
N/C(=N\NC(CC(=O)c1cccc(Cl)c1)c1ccccn1)c1ccccn1 ; strain: 17 strains ; read-out: MIC50 ; result: 32 µg/mL
Fc1cc(Br)ccc1Nc1nnc(-c2ccncc2)o1 ; strain: MY330/88 ; read by: broth dilution ; setting: 21 d ; read-out: MIC100 ; result: >125 µM